# Fitness effects across NS2B and the NS3 protease domain of Zika virus

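Pools of virus carrying all single amino acid changes were selected for growth in Huh-7.5 cells. Sequencing of three replicate libraries (two for positions 207-308) was averaged into one effect per change.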

Chain scanned (Zika virus MR766; NS2B from position 2 to 131, then the start of NS3):
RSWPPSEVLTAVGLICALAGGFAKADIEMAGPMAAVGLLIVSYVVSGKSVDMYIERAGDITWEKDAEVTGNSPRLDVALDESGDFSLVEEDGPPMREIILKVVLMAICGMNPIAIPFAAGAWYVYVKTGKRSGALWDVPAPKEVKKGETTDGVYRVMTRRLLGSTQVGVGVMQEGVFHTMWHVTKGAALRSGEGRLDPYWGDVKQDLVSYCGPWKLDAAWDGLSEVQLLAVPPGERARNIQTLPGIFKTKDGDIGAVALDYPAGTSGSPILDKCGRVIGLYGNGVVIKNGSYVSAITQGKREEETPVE

Values are log2 effects on growth: 0 is wild type, lower means poorer growth. A change reads original residue, position, new residue. This list holds changes to histidine only.

With V102H the assay gave -6.16. With V103H the assay gave -5.53. L104H gave -6.00. With M105H the assay gave -5.54. For A106H the result was -5.60. With I107H the assay gave -5.09. With C108H the assay gave -6.14. With G109H the assay gave -5.36. For M110H the result was -1.48.

N111H gave 0.40. P112H gave -5.11. I113H gave -5.08. A114H read -5.61. With I115H the assay gave -6.16. With P116H the assay gave -6.07. With F117H the assay gave -5.59. For A118H the result was -6.01. A119H gave -5.76.

G120H gave -6.40. A121H read -5.36. W122H gave -4.71. Y123H gave -1.99. For V124H the result was -2.14. Y125H read -2.95. V126H read -1.32. With K127H the assay gave -5.91. For T128H the result was -2.36.

For G129H the result was -5.20. K130H gave -6.47. For R131H the result was -5.99. With S132H the assay gave -5.86. G133H read -5.23. With A134H the assay gave -4.79. L135H read -6.75. With W136H the assay gave -6.23. D137H read -6.12.

For V138H the result was -2.50. For P139H the result was -6.12. For A140H the result was -4.83. With P141H the assay gave -1.32. K142H gave -2.84. For E143H the result was -1.50. V144H gave -1.13. For K145H the result was -1.02. With K146H the assay gave -1.43.

For G147H the result was -3.48. For E148H the result was -3.63. T149H read -5.69. T150H read -0.76. D151H read -2.98. G152H gave -5.73. For V153H the result was -5.03. Y154H gave -5.25. R155H gave -5.68.

V156H gave -5.84. M157H read -2.72. For T158H the result was -4.35. R159H gave -5.31. R160H gave -1.67. For L161H the result was -5.05. L162H read -4.82. For G163H the result was -3.12. S164H read -0.07.

For T165H the result was 0.58. Q166H read -3.24. For V167H the result was -4.98.

Values above 0 are not proof of better growth: six high scorers were tested one by one, five grew less well than wild type and one about as well. Position 1 still belongs to NS2A. In the paper, -1 or higher counts as tolerated. The region was split into three libraries (1-103, 104-206, 207-308).

Source: Ni et al. 2025 (doi:10.1038/s41467-025-63602-z), supplementary data.